Measurements from patent US5583115A, “Dialkyltiacumicin compounds” (Abbott Laboratories, priority 1995, dated 1996).

Experiments:
[1] = tested on: Enterococcus faecium; assay: MIC agar dilution, aerobic and facultative bacteria; conditions: Table 1
[2] = tested on: Streptococcus agalactiae; assay: as above; conditions: Table 1

For CCc1c(Cl)c(OC)c(Cl)c(OC)c1C(=O)OC1C(C)OC(OCC2=CC=CCC(O)C(C)=CC(CC)C(OC3OC(C)(C)C(OC(=O)C(C)C)C(O)C3O)C(C)=CC(C)=CCC(C(C)O)OC2=O)C(OC)C1O (centres unmarked) [Example 2, 3"', 5"'-Di-O-methyltiacumicin B], the “activity relative to tiacumicin B” value [1] was “substantially less active than the starting material tiacumicin B” and the “activity relative to tiacumicin B” value [2] was “substantially less active than the starting material tiacumicin B”.
